{"source": "paper PMC7762994", "about": "(Viruses, 2020)", "tested_on": "host proteins (proteome-wide)", "assay": "2D-TPP in U87 cells (proteome-wide)", "assay_type": "binding, Homo sapiens", "details": "1, 3, 10 and 30 μM, of 8417 proteins detected"}
{"molecule": "CCOC(=O)c1cnn(-c2cccc3c2[nH]c(=O)n3C2CCN(C(=O)Nc3ccc(I)cc3)CC2)c1", "note": "[TH6744, ethyl 1-(1-(1-((4-iodophenyl)carbamoyl)piperidin-4-yl)-2-oxo-2,3-dihydro-1H-benzo[d]imidazol-4-yl)-1H-pyrazole-4-carboxylate]", "values": [{"measurement": "number of proteins with dose-dependent thermal destabilization", "result": 126}, {"measurement": "number of proteins with dose-dependent thermal stabilization", "result": 94}]}
